Record: PubChem BioAssay AID624099 (ICCB-Longwood, 2012)
Screen: 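Human genes that papillomavirus E2 requires to repress the HPV18 LCR promoter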 (primary screen). System: human C33A cervical carcinoma cells (HPV-negative) stably expressing BPV1 E2 and an HPV18 LCR luciferase reporter. Reagent: siRNA pool against human genes, 40 nM. Time to read-out: 72 h. Measurement: 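Per-well luciferase luminescence, z-scored on each plate against the plate mean and SD with control wells left out, then averaged across three replicate plates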. Scale: mean z-score and z-score: higher = stronger reporter signal, weaker E2 silencing. Active means: 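Mean z ≥ 2 together with z ≥ 2 in two or more of the three replicates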.
In all, the deposit lists about 21,000 reagents; below is an unselected part. 497 of all reagents (2.4%) were called active. 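Higher z means weaker E2 silencing; only reporter increases were scored, and knock-downs that hurt cell survival may mask genuine repressor factors.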 Reagents against one gene are numbered here.

gene	reagent no.	mean z-score	z-score, replicate A	z-score, replicate B	z-score, replicate C	Call
TRAF5 (GeneID 7188)	1	0.83	0.73	1.07	0.68	inactive
KDM3A (GeneID 55818)	1	-0.8	-1.3	-0.8	-0.3	inactive
C6orf163 (GeneID 206412)	1	0.47	0.19	0.76	0.98	inactive
FARS2 (GeneID 10667)	1	0.48	0.65	0.64	0.14	inactive
FANCM (GeneID 57697)	1	0.56	-0.17	2.29	-0.45	inactive
PDE4DIPP3 (GeneID 199882)	1	-0.11	-0.31	-0.14	0.12	inactive
PDE4DIPP3 (GeneID 199882)	2	0.78	1.03	0.53	0.79	inactive
OPHN1 (GeneID 4983)	1	-0.26	-0.37	-0.36	-0.06	inactive
URGCP (GeneID 55665)	1	0.03	-0.2	-0.07	0.36	inactive
PNISR (GeneID 25957)	1	0.06	0.09	-0.04	0.13	inactive
CENPVL1 (GeneID 389857)	1	-0.87	-1	-0.51	-1.11	inactive
COPB1 (GeneID 1315)	1	-1.22	-1.59	-1.03	-1.03	inactive
SEC24B (GeneID 10427)	1	-1.71	-1.63	-1.73	-1.76	inactive
RPUSD3 (GeneID 285367)	1	0.35	0.55	0.08	0.41	inactive
APP (GeneID 351)	1	-0.07	-0.04	-0.07	-0.09	inactive
CFAP45 (GeneID 25790)	1	-0.06	-0.03	0.03	-0.18	inactive
MEIOC (GeneID 284071)	1	-0.07	-0.14	-0.07	0	inactive
OR2B3 (GeneID 442184)	1	0.33	0.52	0.34	0.15	inactive
EPSTI1 (GeneID 94240)	1	1.27	0.55	1.6	1.64	inactive
UNC119 (GeneID 9094)	1	-0.56	-0.46	-0.86	-0.35	inactive
FGL2 (GeneID 10875)	1	0.15	0.52	-0.12	0.05	inactive
SLC5A6 (GeneID 8884)	1	1.15	0.9	1.13	1.44	inactive
FBXL8 (GeneID 55336)	1	0.59	0.39	0.59	0.78	inactive
SELP (GeneID 6403)	1	0.34	0.22	0.28	0.51	inactive
SHC2 (GeneID 25759)	1	-0.42	-0.67	-0.47	-0.14	inactive
MPV17L2 (GeneID 84769)	1	-1.15	-1.53	-0.9	-1.02	inactive
VGF (GeneID 7425)	1	0.13	0.08	0.12	0.18	inactive
INSM1 (GeneID 3642)	1	-1.52	-1.25	-1.61	-1.7	inactive
TTLL9 (GeneID 164395)	1	-0.11	0.2	-0.4	-0.13	inactive
RABEPK (GeneID 10244)	1	0.56	0.44	0.71	0.53	inactive
MGST2 (GeneID 4258)	1	1.79	1.76	1.94	1.68	inactive
MSN (GeneID 4478)	1	-0.63	-1.09	-0.29	-0.52	inactive
PPIL3 (GeneID 53938)	1	-0.78	-0.58	-0.53	-1.24	inactive
SLC4A3 (GeneID 6508)	1	-0.36	-0.26	-0.56	-0.25	inactive
LMAN2 (GeneID 10960)	1	-1.09	-0.62	-1.23	-1.42	inactive
ARIH1 (GeneID 25820)	1	-0.86	-0.82	-1.02	-0.74	inactive
LAMA4 (GeneID 3910)	1	-0.3	-0.5	0.03	-0.43	inactive
INVS (GeneID 27130)	1	0.72	0.75	1.13	0.29	inactive
NCS1 (GeneID 23413)	1	-0.33	-0.43	-0.25	-0.31	inactive
FOXR1 (GeneID 283150)	1	-0.45	-0.88	0.05	-0.51	inactive
MIR3150BHG (GeneID 105375650)	1	-0.17	0.49	-0.67	-0.34	inactive
PTGFR (GeneID 5737)	1	-1.5	-1.59	-1.64	-1.29	inactive
C9orf57 (GeneID 138240)	1	0.84	0.53	0.53	1.46	inactive
AQP9 (GeneID 366)	1	-0.33	-0.15	-0.38	-0.46	inactive
PCDH11Y (GeneID 83259)	1	-0.42	-0.34	-0.42	-0.5	inactive
LRRC3 (GeneID 81543)	1	-0.52	-0.13	-0.73	-0.71	inactive
LRRC3 (GeneID 81543)	2	0.81	0.54	1.14	0.75	inactive
CPXM2 (GeneID 119587)	1	0.72	0.82	0.84	0.5	inactive
DTX3 (GeneID 196403)	1	-0.74	-0.56	-0.75	-0.93	inactive
SLC22A11 (GeneID 55867)	1	-0.27	-0.61	-0.29	0.09	inactive
LINC02243 (GeneID 340581)	1	2.38	2.55	2.7	1.89	active
RANBP3L (GeneID 202151)	1	-0.04	0.04	0.02	-0.17	inactive
HAX1 (GeneID 10456)	1	0.08	0.06	-0.09	0.26	inactive
ZNF233 (GeneID 353355)	1	-0.05	0.22	-0.42	0.05	inactive
SPATA31E1 (GeneID 286234)	1	0.61	1.18	0.17	0.48	inactive
WASL (GeneID 8976)	1	-0.31	-0.27	-0.31	-0.36	inactive
PDC (GeneID 5132)	1	0.14	0.04	0.09	0.29	inactive
HAVCR2 (GeneID 84868)	1	0.32	0.24	0.25	0.47	inactive
DACH1 (GeneID 1602)	1	3.65	3.62	3.91	3.42	active
MIPEP (GeneID 4285)	1	-0.97	-0.85	-1.09	-0.95	inactive
CD7 (GeneID 924)	1	0.44	0.98	0.11	0.22	inactive
JOSD1 (GeneID 9929)	1	0.6	0.36	0.75	0.7	inactive
LINC00311 (GeneID 197196)	1	0.5	0.29	0.98	0.22	inactive
UNG (GeneID 7374)	1	0.95	0.73	1.23	0.89	inactive
FAM222A (GeneID 84915)	1	1.35	1.48	1.36	1.21	inactive
CHCHD7 (GeneID 79145)	1	0.46	0.92	0.19	0.28	inactive
HS1BP3 (GeneID 64342)	1	-0.95	-0.56	-1.15	-1.14	inactive
PIGW (GeneID 284098)	1	0.69	0.78	0.45	0.83	inactive
R3HDM4 (GeneID 91300)	1	0.8	0.47	0.94	0.98	inactive
LMNTD2 (GeneID 256329)	1	0.23	0.29	0.26	0.15	inactive
SEPTIN12 (GeneID 124404)	1	-1.24	-1.19	-1.3	-1.23	inactive
CLEC12B (GeneID 387837)	1	0.33	0.31	0.44	0.22	inactive
FMN1 (GeneID 342184)	1	-0.34	-0.23	-0.1	-0.68	inactive

Active calls, of those listed so far:
gene	reagent no.	mean z-score	z-score, replicate A	z-score, replicate B	z-score, replicate C	Call
LINC02243 (GeneID 340581)	1	2.38	2.55	2.7	1.89	active
DACH1 (GeneID 1602)	1	3.65	3.62	3.91	3.42	active
